Results from patent US12157713B2, “Conjugated oligoelectrolytes as antimicrobial agents” (Nanyang Technological University, priority 2018, dated 2024).

Test system: human erythrocytes
Assay: Haemolysis assay
Type: cell-based
Conditions: MIC against S. aureus 25923
Description: 1 mL of mammalian blood, collected from a healthy donor, was mixed with 9 mL of PBS and centrifuged at 1,000 rpm for 5 min. Red blood cell pellet was collected and subsequently washed with PBS three times and diluted to a final concentration of 5% v/v. The various COEs were dissolved in PBS and two folds serial diluted in a 96-well microplate. 50 μL of red blood cell stock was mixed with 50 μL of COE solution in each well and incubated for 1 hr at 37° C. under shaking. The microplate was centrifuged at 1,000 rpm for 10 min. 80 μL aliquots of the supernatant were then transferred to a new 96-well microplate and diluted with another 80 μL of PBS. Haemolytic activity was calculated by measuring absorbance at 540 nm using a 96-well plate spectrophotometer. Triton X-100 (0.1% in PBS), which is able to lyse red blood cells, completely was used as positive control, while PBS was used as negative control. The haemolysis percentage was calculated using the following formula:
[formula] where Op is the absorbance of the COE-treated sample, Ob is the absorbance of negative control and Ot is the absorbance of positive control. Results and Discussions
The selectivity of COEs towards bacteria or mammalian cells can be quantified using the ratio between the concentrations leading to 50% lysis of human erythrocytes (HC50) and the MIC value.

C[N+](C)(C)CC[N+](C)(C)CCCCCCOc1ccc(/C=C/c2ccc(/C=C/c3ccc(OCCCCCC[N+](C)(C)CC[N+](C)(C)C)cc3)cc2)cc1 [COE-T62]
HC50/MIC (S. aureus) ratio: >8192
